A mixed list of measured activities; the numbers were collected in NIAID ChemDB.

Lines come from different laboratories, so protocols vary. Inhibition is in % at the dose shown (toxicity tests: loss of growth or viability). a–b is a range or a potency band. A number after MIC or MFC names an inhibition level or a share of isolates. ICn is the concentration giving n% inhibition. ECn is the concentration giving n% inhibition of infection, replication or growth. CCn is the concentration with n% toxicity to the cells. An empty or dashed field is not shown.

compound	tested at	strain	method	agent	cells	test	measure	protein	result
CCO/N=C/c1ccc(OCCC2CCN(c3ccc(Cl)nn3)CC2)cc1		121564 (ICAM-1 receptor group 86)	neutral red	Rhinovirus	KB	culture	EC50		0.021 µM
O=c1cc(N2CCc3ccc(-c4ccncc4)cc3C2)c2cccnc2n1O					HeLa	toxicity	CC50		<100 µM
COc1cc(CCN2CCc3nc(N)nc(N)c3C2)cc(OC)c1OC		TYPE 1		Cryptosporidium parvum		target	IC50	Dihydrofolate reductase	>10 µM
O=C(NCCc1ccc2c(n1)NCCC2)NCc1ccc(Cl)cc1Cl					PBMC	toxicity	CC50		4.24 µM
Cc1cc(-c2ccc(N=Nc3ccc4c(S(=O)(=O)O)cc(S(=O)(=O)O)c(N)c4c3O)c(C)c2)ccc1N=Nc1ccc2c(S(=O)(=O)O)cc(S(=O)(=O)O)c(N)c2c1O	5 µg/mL	TYPE 3	cytopathic effect	Adenovirus	Human embryonic lung cells	culture	inhibition		10%
CN1CCc2ccc(NC(=O)NCCc3ccc4c(n3)NCCC4)cc21					PBMC	toxicity	CC50		1.1 µM
O=C(O)c1c[nH]n2c(=O)c(CCCc3ccccc3)c(-c3ccc(OCc4ccccc4)cc3)nc12				Hepatitis C virus		target	IC50	RNA-dependent RNA polymerase	1–10 µM
O=C(NCCc1cccc(-n2ccnc2)n1)NCc1ccc(Cl)c(Cl)c1					PBMC	toxicity	CC50		6.1 µM
CS(=O)(=O)c1cccc(-c2ccc(-c3cnc4c(C(=O)O)cnn4c3C3CCCCC3)cc2)c1				Hepatitis C virus		target	IC50	RNA-dependent RNA polymerase	1–10 µM
CCOC(=O)c1c(O)c2cc(-c3ccccc3)cnc2n(O)c1=O					HeLa	toxicity	CC50		<100 µM
CCOc1ccccc1NC(=O)NCCc1ccc2c(n1)NCCC2					PBMC	toxicity	CC50		3.4 µM
Nc1nc(N)c2c(n1)CCC(Cc1ccsc1)C2		TYPE 2		Cryptosporidium parvum		target	IC50	Dihydrofolate reductase	1 µM
C=CCc1ccc(OC)c(OC)c1		3177	turbidity	Candida tropicalis		culture	MIC90		345 µg/mL
CN(C(=O)CCc1ccc2c(n1)NCCC2)c1ccc(C(F)(F)F)cc1					PBMC	toxicity	CC50		22 µM
O=C(Nc1ccc2cc(S(=O)(=O)[O-])cc(S(=O)(=O)[O-])c2c1)c1ccccc1	5 µg/mL		cytopathic effect	Herpes simplex virus	Human conjunctiva cells	culture	inhibition		0%
COc1cc(-c2cc(-c3ccc(Oc4ccccc4)cc3)nc3cc(C(=O)O)nn23)ccc1Cl				Hepatitis C virus		target	IC50	RNA-dependent RNA polymerase	1–10 µM
CCOC(=O)/C=C/[C@H](C[C@@H]1CCNC1=O)NC(=O)[C@@H](CC(=O)[C@@H](NC(=O)c1cc(C)on1)C(C)C)Cc1ccc(F)cc1		Isolate 21	cytopathic effect / visual reading	Rhinovirus	OHIO HELA-I	culture	EC50		<0.01 µg/mL
COc1cc(CCc2cccc3nc(N)nc(N)c23)cc(OC)c1OC		TYPE 2		Cryptosporidium parvum		target	IC50	Dihydrofolate reductase	>10 µM
O=C(Nc1cc(S(=O)(=O)[O-])cc2cc(S(=O)(=O)[O-])ccc12)c1ccccc1	50 µg/mL		cytopathic effect	Rhinovirus	Human amnion AV3 cells	culture	inhibition		0%
Cc1ccc(OC(=O)NCCc2ccc3c(n2)NCCC3)cc1					PBMC	toxicity	CC50		50 µM
CCOC(=O)c1cc2nc(-c3ccccc3)cc(-c3ccccc3Cl)n2n1				Hepatitis C virus		target	IC50	RNA-dependent RNA polymerase	>10 µM
COc1ccc(Cl)cc1NC(=O)NCCc1ccc2c(n1)NCCC2					PBMC	toxicity	CC50		3 µM
CC(C)C[C@H](NC(=O)c1cnn2c(C3CCCCC3)c(-c3ccc(F)cc3)cnc12)C(=O)O				Hepatitis C virus		target	IC50	RNA-dependent RNA polymerase	<1 µM
CN(Cc1ccc2nc(N)nc(N)c2n1)c1ccc(C(=O)NC(CO)CCO)cc1		TYPE 1		Cryptosporidium parvum		target	IC50	Dihydrofolate reductase	2.4 µM
Nc1ccc2cc([N+](=O)[O-])cc(S(=O)(=O)[O-])c2c1	10 µg/mL		cytopathic effect	Herpes simplex virus	Human conjunctiva cells	culture	inhibition		0%
O=C(O)c1cc2nccc(-c3ccccc3-c3ccccc3F)n2n1				Hepatitis C virus		target	IC50	RNA-dependent RNA polymerase	>10 µM
COc1cc(N(C)Cc2ccc3nc(N)nc(N)c3n2)cc(OC)c1OC		TYPE 2		Cryptosporidium parvum		target	IC50	Dihydrofolate reductase	0.075 µM
O=C1C(c2[nH]c3ccc(S(=O)(=O)O)cc3c2O)=Nc2ccc(S(=O)(=O)O)cc21	50 µg/mL		cytopathic effect	Rhinovirus	Human embryonic lung cells	culture	inhibition		0%
NCc1cccc(-c2cccc(Cc3cc(=O)n(O)c4ncccc34)c2)c1					HeLa	toxicity	CC50		0.29 µM
Cc1cc(-c2ccc(N=Nc3c(N)c(S(=O)(=O)O)cc4cc(S(=O)(=O)O)ccc34)c(C)c2)ccc1N=Nc1c(N)ccc2cc(S(=O)(=O)O)ccc12	5 µg/mL		cytopathic effect	Rhinovirus	Human amnion AV3 cells	culture	inhibition		0%
Fc1ccc(N2CCCCC2)c(NC(=S)c2ccncc2)c1	10 µM		kinase activity			host protein	inhibition	MAP2K2	4.9%
O=C(NCCc1ccc2c(n1)NCCC2)Nc1ccccc1C(F)(F)F					PBMC	toxicity	CC50		29 µM
COc1cccc2nc(N)nc(N)c12		TYPE 1		Cryptosporidium parvum		target	IC50	Dihydrofolate reductase	0.56 µM
Nc1ccc(S(=O)(=O)[O-])c2c(S(=O)(=O)[O-])ccc(O)c12	50 µg/mL		cytopathic effect	Herpes simplex virus	Human conjunctiva cells	culture	inhibition		0%
N#Cc1cnn2c(-c3ccc(OCc4ccccc4)cc3)c(-c3ccccc3)cnc12				Hepatitis C virus		target	IC50	RNA-dependent RNA polymerase	>10 µM
Cc1cc(-c2ccc(N=Nc3c(S(=O)(=O)O)cc4cc(S(=O)(=O)O)cc(N)c4c3O)c(C)c2)ccc1N=Nc1c(S(=O)(=O)O)cc2cc(S(=O)(=O)O)cc(N)c2c1O	5 µg/mL	TYPE 3	cytopathic effect	Adenovirus	Human embryonic lung cells	culture	inhibition		0%
O=C(O)c1cc2nc(-c3ccccc3Cl)cc(-c3ccccc3Cl)n2n1				Hepatitis C virus		target	IC50	RNA-dependent RNA polymerase	>10 µM
CCc1ccccc1-c1nc2nc(N)nc(N)c2nc1-c1ccccc1CC		TYPE 1		Cryptosporidium parvum		target	IC50	Dihydrofolate reductase	>10 µM
O=c1c(-c2ccccn2)c(O)c2cccnc2n1O					HeLa	toxicity	CC50		0.5 µM
O=C(NCCc1ccc2c(n1)NCCC2)N1CCc2ccccc21					PBMC	toxicity	CC50		50 µM
O=C(N[C@@H](Cc1cc2ccccc2[nH]1)C(=O)O)c1cnn2c(C3CCCCC3)c(-c3ccc(OCc4ccccc4)cc3)cnc12				Hepatitis C virus		target	IC50	RNA-dependent RNA polymerase	<1 µM

A second listing of 2 rows from above:

O=c1cc(N2CCc3ccc(-c4ccncc4)cc3C2)c2cccnc2n1O ; cells: HeLa ; test: toxicity ; measure: CC50 ; result: <100 µM
O=C(NCCc1cccc(-n2ccnc2)n1)NCc1ccc(Cl)c(Cl)c1 ; cells: PBMC ; test: toxicity ; measure: CC50 ; result: 6.1 µM